Results of unrelated studies side by side (data: NIAID ChemDB).

Shared fields: tests in culture; agent: HIV-1; read-out: EC50

ECn is the concentration giving n% inhibition of infection, replication or growth. Two numbers with a dash give a range or band. An empty or dashed field is not shown. Neighbouring rows are from separate reports.

smiles,strain or isolate,mutations,cells,read by,setting,value
O=C(Cn1ccn2c(=O)c(O)c(-c3ncc(Cc4ccc(F)cc4)s3)nc12)N1CCOCC1,,,HEK 293,luciferase,,0.001–0.1 µM
NS(=O)(=O)c1ccc(NC(=O)c2ccccc2SSc2ccccc2C(=O)Nc2ccc(S(N)(=O)=O)cc2)cc1,ADA,,Monocytes/macrophages,p24,,5.8 µM
Cc1cc(S(N)(=O)=O)ccc1NC(=O)COc1ccc(Cl)cc1C(=O)c1cccc(C#N)n1,HXB2,RT-L100I,HeLa + HELA CD4+,β-galactosidase,,<0.01 µM
CC(C)C1=C2[C@H]3CC[C@@H]4[C@@]5(C)CC[C@H](OC(=O)[C@H]6C[C@@H](C(=O)O)C6(C)C)C(C)(C)[C@@H]5CC[C@@]4(C)[C@]3(C)CC[C@@]2(CC(=O)NCc2cccnc2)CC1=O,92HT599,,MT-2,p24 / ELISA,,<1 µM
N=C(N)c1cccc(OCc2ccc(Cl)cc2)c1,,,HUT4-3/SX22-1,β-galactosidase / cell fusion,,>10 µM
CC(C)=CCN1CC(C)Cn2c(=S)[nH]c3cccc1c32,6R,,CEM(SS) + CEM-SS,cytopathic effect / XTT,,0.85 µM
CC(C)C1=C2[C@H]3CC[C@@H]4[C@@]5(C)CC[C@H](OC(=O)[C@H]6C[C@@H](C(=O)O)C6(C)C)C(C)(C)[C@@H]5CC[C@@]4(C)[C@]3(C)CC[C@@]2([C@@H](O)CNC(=O)C2(NC(=O)c3ccc(Cl)cc3)CCC2)CC1=O,92HT599,,MT-2,p24 / ELISA,,<1 µM
CC(=O)NS(=O)(=O)c1ccc(NC(=O)c2ccccc2SSc2ccccc2C(=O)Nc2ccc(S(=O)(=O)NC(C)=O)cc2)cc1,ADA,,Monocytes/macrophages,p24,,9.4 µM
CC(C)C1=C2[C@H]3CC[C@@H]4[C@@]5(C)CC[C@H](OC(=O)[C@H]6C[C@@H](C(=O)O)C6(C)C)C(C)(C)[C@@H]5CC[C@@]4(C)[C@]3(C)CC[C@@]2([C@@H](O)CNCC(C)(C)NC(=O)c2ccc(O[C@H]3CCOC3)cc2)CC1=O,92HT599,,MT-2,p24 / ELISA,,<1 µM
COc1c2c(cc3c1[C@H](c1ccc(O)c(Oc4ccccc4)c1)[C@H]1C(=O)OC[C@@H]1C3)OCO2,IIIB,,SUP-T1/H9(HIV-1IIIB) + Sup-T1,syncytia,,2.43 µM
CCc1cc(C#N)cc(C(=O)c2cc(Cl)ccc2OCC(=O)Nc2ccc(S(N)(=O)=O)cc2C)c1,HXB2 (RT-K103N G190A) Recombinant,RT-K103N G190A,HeLa + HELA CD4+,β-galactosidase,,<0.01 µM
CC(C)(C)C(=O)SCCOP(=O)(OCCSC(=O)C(C)(C)C)OC[C@@H]1O[C@H](n2cc(Cl)c(N)nc2=O)C[C@H]1F,IIIB,,CEM + CEM/O,,,>50 µM
C#CCOCc1cn(C2CCON2C(=O)OCc2ccccc2)c(=O)[nH]c1=O,NL4-3,,CEM-GFP,fluorescence,,0.69 µM
N=C(N)c1cccc(Oc2ccccc2)c1,,,HUT4-3/SX22-1,β-galactosidase / cell fusion,,>10 µM
CC(C)C1=C2[C@H]3CC[C@@H]4[C@@]5(C)CC[C@H](OC(=O)[C@H]6C[C@@H](C(=O)O)C6(C)C)C(C)(C)[C@@H]5CC[C@@]4(C)[C@]3(C)CC[C@@]2(CCNCc2ccc3ccccc3n2)CC1=O,92HT599,,MT-2,p24 / ELISA,,<1 µM
NC(N)=Nc1cccc(OCc2ccc(Cl)cc2)c1,,,HUT4-3/SX22-1,β-galactosidase / cell fusion,,>10 µM
O=c1[nH]c(=O)n([C@@H]2C[C@@H](F)[C@H](CO)O2)cc1Cl,IIIB,,CEM + CEM/O,,,>250 µM
CC(C)C1=C2[C@H]3CC[C@@H]4[C@@]5(C)CC[C@H](OC(=O)[C@H]6C[C@@H](C(=O)O)C6(C)C)C(C)(C)[C@@H]5CC[C@@]4(C)[C@]3(C)CC[C@@]2(CCNCC(F)(NC(=O)c2ccc(Cl)cc2)C(C)O)CC1=O,92HT599,,MT-2,p24 / ELISA,,<1 µM
O=c1[nH]c(=O)n([C@H]2C[C@H](F)[C@@H](CO)O2)cc1Cl,IIIB,,CEM + CEM/O,,,0.5 µM
C1CCC(NC2=NCCN2)CCCCC(NC2=NCCN2)CC1,NL4-3,,HEK 293,entry / fluorescence,,15.5 µM
C[C@H]1CN(C(=O)Cn2ccn3c(=O)c(O)c(-c4ncc(Cc5ccc(F)c(Cl)c5)s4)nc23)C[C@H](C)O1,,N155H/E92Q,HEK 293,luciferase,,0.1–1 µM
CC(C)C1=C2[C@H]3CC[C@@H]4[C@@]5(C)CC[C@H](OC(=O)[C@H]6C[C@@H](C(=O)O)C6(C)C)C(C)(C)[C@@H]5CC[C@@]4(C)[C@]3(C)CC[C@@]2([C@@H](O)CNCc2ccc(CN3CCOCC3)cc2)CC1=O,92HT599,,MT-2,p24 / ELISA,,<1 µM
CC(C)(C)C(=O)SCCOP(=O)(OCCSC(=O)C(C)(C)C)OC[C@@H]1O[C@H](n2cc(Cl)c(=O)[nH]c2=O)C[C@H]1F,IIIB,,CEM + CEM/O,,,>50 µM
O=C(OCc1ccccc1)N1OCCC1n1cc(COCc2ccccc2)c(=O)[nH]c1=O,NL4-3,,CEM-GFP,fluorescence,,15.7 µM
C[C@H]1CN(C(=O)Cn2ccn3c(=O)c(O)c(-c4ncc(Cc5ccc(F)cc5S(C)(=O)=O)s4)nc23)C[C@H](C)O1,,QHGS,HEK 293,luciferase,,0.5–1 µM
C=CCOCc1cn(C2CCON2C(=O)OCc2ccccc2)c(=O)[nH]c1=O,NL4-3,,CEM-GFP,fluorescence,,10.1 µM
CN1CCN(C(=O)Cn2ccn3c(=O)c(O)c(-c4ncc(Cc5ccc(F)cc5)s4)nc23)CC1,,N155H/E92Q,HEK 293,luciferase,,0.1–1 µM
CCCc1cc(=O)oc2c3c(c4c(c12)OC(C)(C)CC4)O[C@@H](C)[C@H](C)[C@@H]3O,NL4-3,RT-A98G,CEM + CEM-SS,XTT,,0.2 µM
CC(C)OC(=O)C[C@H](N[P@@](=O)(CO[C@H](C)Cn1cnc2c(N)ncnc21)NC(C)(C)C(=O)OC(C)C)C(C)C,,,MT4-GFP,fluorescence,10% human serum,4.7 µM
CC(C)C1=C2[C@H]3CC[C@@H]4[C@@]5(C)CC[C@H](OC(=O)[C@H]6C[C@@H](C(=O)O)C6(C)C)C(C)(C)[C@@H]5CC[C@@]4(C)[C@]3(C)CC[C@@]2([C@@H](O)CNC(=O)C(CCCCN)NC(=O)c2ccc(Cl)cc2)CC1=O,92HT599,,MT-2,p24 / ELISA,,<1 µM
CCCCCCOC(=O)C(C)(C)NP(=O)(CO[C@H](C)Cn1cnc2c(N)ncnc21)N[C@H](CC(=O)OC(C)C)C(C)C,,,MT4-GFP,fluorescence,10% human serum,2.1 µM
Cc1ccc(COc2cccc(C(=N)N)c2)cc1,,,HUT4-3/SX22-1,β-galactosidase / cell fusion,,>10 µM
CCCCCCCOC(=O)[C@H](C)NP(=O)(CO[C@H](C)Cn1cnc2c(N)ncnc21)NC[C@H](C)C(=O)OC(C)C,,,MT4-GFP,fluorescence,50% human serum,43 µM
CC1CCCCN1C(=O)Cn1cc(N2CCCS2(=O)=O)n2c(=O)c(O)c(C(=O)NCc3ccc(F)cc3S(=O)(=O)N(C)C)nc12,,QHGS,HEK 293,luciferase,,0.5–1 µM
CCOC(=O)c1c(C(C)C)c(C#N)c(=N)n2ccccc12,IIIB,,MOLT-4/HIV-1(IIIB) + MOLT-4,trypan blue,,>70.7 µM
CC(C)OC(=O)CCNP(=O)(CO[C@H](C)Cn1cnc2c(N)ncnc21)N[C@H](C)C(=O)OC(C)C,,,MT4-GFP,fluorescence,10% human serum,378 µM
Nc1c(B(O)O)c2c3c4c1CC(O)c1c(N)c(B(O)O)c5c(c14)c1c4c(c6c7c(cc(B(O)O)c8c7c4c4c(c31)C(C2C(=O)O)C(C(=O)O)C(C(=O)O)C4N8)-c1cccc(B(O)O)c1N6)C5C(=O)O,,,MT-4 + MOLT-4,syncytia / visual reading,,480 µg/mL
COc1ccc(C(=O)NCC[C@@]23CC[C@]4(C)[C@H](CC[C@@H]5[C@@]6(C)CC[C@H](OC(=O)[C@H]7C[C@@H](C(=O)O)C7(C)C)C(C)(C)[C@@H]6CC[C@]54C)C2=C(C(C)C)C(=O)C3)cc1,92HT599,,MT-2,p24 / ELISA,,<1 µM
C=C(C)[C@@H]1CC[C@]2(C(=O)NCCCCCCCC(=O)N[C@@H](CC(C)C)[C@@H](O)CC(=O)O)CC[C@]3(C)[C@H](CC[C@@H]4[C@@]5(C)CC[C@H](O)C(C)(C)[C@@H]5CC[C@]43C)[C@@H]12,LAI,GP41-A101S,HeLa P4 + HeLa,syncytia,,<10 µM
C1CNC(NC2CCC(NC3=NCCN3)CC2)=N1,NL4-3,,HEK 293,entry / fluorescence,,40.95 µM
CC(C)C1=C2[C@H]3CC[C@@H]4[C@@]5(C)CC[C@H](OC(=O)[C@H]6C[C@@H](C(=O)O)C6(C)C)C(C)(C)[C@@H]5CC[C@@]4(C)[C@]3(C)CC[C@@]2(CCNCc2ccc(Cl)cn2)CC1=O,92HT599,,MT-2,p24 / ELISA,,<1 µM
Cc1cc(N2CCS(=O)CC2)ccc1NC(=O)COc1ccc(Cl)cc1C(=O)c1cccs1,HXB2,RT-Y181C,HeLa + HELA CD4+,β-galactosidase,,0.101–1 µM
CC(=O)Nc1cc(S(=O)(=O)O)cc2cc(S(=O)(=O)O)cc(O)c12,IIIB,,MOLT-4/HIV-1(IIIB) + MOLT-4,syncytia,,>100 µM
Cc1cc(S(N)(=O)=O)ccc1NC(=O)COc1ccccc1C(=O)c1cc(Cl)cc(C#N)c1,,RT-L100I K103N,HeLa MAGI + HeLa,β-galactosidase,,<0.005 µM
N=C(N)c1cccc(OCc2ccc(OCc3ccccc3)cc2)c1,,,HUT4-3/SX22-1,β-galactosidase / cell fusion,,>10 µM
C=C(C)[C@@H]1CC[C@]2(C(=O)NCCC(C)(C)C)CC[C@]3(C)[C@H](CC[C@@H]4[C@@]5(C)CC[C@H](OC(=O)CC(C)(C)C(=O)O)C(C)(C)[C@@H]5CC[C@]43C)[C@@H]12,NL4-3,T371delta,,absorbance,,0.117 µM
CCCCCOC(=O)C(C)(C)N[P@](=O)(CO[C@H](C)Cn1cnc2c(N)ncnc21)N[C@@H](CC(=O)OC(C)C)C(C)C,,,MT4-GFP,fluorescence,50% human serum,4.4 µM
Cc1cc(OCCCS(N)(=O)=O)ccc1NC(=O)COc1ccc(Cl)cc1C(=O)c1cc(F)cc(C(F)(F)F)c1,HXB2,RT-K103N,HeLa + HELA CD4+,β-galactosidase,,<0.01 µM
CC1=C(/C=C/C(C)=C/C=C/C(C)=C/C(=O)O)C(C)(C)CCC1,IIIB,,ACH-2 (chronically infected) + ACH2,MTT / p24,"10 d, chronic infection",>0.1 µM
NCCSSCCN,BaL,,Macrophage,p24,,~50 µM
COc1ccc([C@H]2c3c(cc4c(c3OC)OCO4)C[C@H]3CSC[C@@H]32)cc1OCc1ccccc1,IIIB,,SUP-T1/H9(HIV-1IIIB) + Sup-T1,syncytia,,1.37 µM
Cc1cc(S(N)(=O)=O)ccc1NC(=O)COc1ccc(Cl)cc1C(=O)c1cc(F)cc(F)c1,HXB2,RT-G190A,HeLa + HELA CD4+,β-galactosidase,,<0.01 µM
CC(C)OC(=O)[C@H](C)CNP(=O)(CO[C@H](C)Cn1cnc2c(N)ncnc21)N[C@@H](C)C(=O)OC(C)C,,,MT4-GFP,fluorescence,10% human serum,10.6 µM
CN1CCC(n2ccn3c(=O)c(O)c(-c4ncc(Cc5ccc(F)cc5)s4)nc23)C1=O,,QHGS,HEK 293,luciferase,,0.5–1 µM
CCCN(CCC)C(=O)OCC1CN(C(=O)c2cc(OC)c(OC)c(OC)c2)CCN1C(=O)c1cc(OC)c(OC)c(OC)c1,BaL,,MDM,RT activity,,<100 µM
O=C(O)[C@H]1O[C@@H](Oc2cc3oc(-c4ccccc4)cc(=O)c3c(O)c2O)[C@H](O)[C@@H](O)[C@@H]1O,ENV(BAL31),,HOS-CD5-CCR5 + HOS,,,4 µM
CC(=O)CC(c1ccccc1)c1c(O)c2ccccc2oc1=O,,,ACH-2(HIV-1(IIIB)) + ACH2,trypan blue,,0.001–0.01 µM
Cc1cc(S(N)(=O)=O)ccc1NC(=O)COc1ccc(Cl)cc1C(=O)c1cc(F)cc(C#N)c1,HXB2,RT-V106A Y181C,HeLa + HELA CD4+,β-galactosidase,,<0.01 µM
CCCCCCCOC(=O)[C@@H](C)NP(=O)(CO[C@H](C)Cn1cnc2c(N)ncnc21)NC[C@H](C)C(=O)OC(C)C,,,MT4-GFP,fluorescence,10% human serum,2.2 µM
Cc1cc(C#N)cc(C(=O)c2cc(Cl)ccc2OCC(=O)Nc2cnc(S(N)(=O)=O)cc2C)c1,HXB2,RT-L100I,HeLa + HELA CD4+,β-galactosidase,,<0.01 µM
C[C@@H]1CN(C(=O)Cn2cc(N3CCCS3(=O)=O)n3c(=O)c(O)c(C(=O)NCc4ccc(F)cc4S(=O)(=O)N(C)C)nc23)C[C@@H](C)O1,,QHGS,HEK 293,luciferase,,<0.5 µM

For reference, 3 entries again:

smiles,strain or isolate,mutations,cells,read by,setting,value
CC(C)OC(=O)[C@H](C)CNP(=O)(CO[C@H](C)Cn1cnc2c(N)ncnc21)N[C@@H](C)C(=O)OC(C)C,,,MT4-GFP,fluorescence,10% human serum,10.6 µM
C=C(C)[C@@H]1CC[C@]2(C(=O)NCCC(C)(C)C)CC[C@]3(C)[C@H](CC[C@@H]4[C@@]5(C)CC[C@H](OC(=O)CC(C)(C)C(=O)O)C(C)(C)[C@@H]5CC[C@]43C)[C@@H]12,NL4-3,T371delta,,absorbance,,0.117 µM
CCCCCCCOC(=O)[C@H](C)NP(=O)(CO[C@H](C)Cn1cnc2c(N)ncnc21)NC[C@H](C)C(=O)OC(C)C,,,MT4-GFP,fluorescence,50% human serum,43 µM